Pooled drug test results. Numbers come from NIAID ChemDB, via PubChem.

Shared fields: growth or infection tests; agent: Mycobacterium avium complex

An empty or dashed field is not shown. A number after MIC or MFC names an inhibition level or a share of isolates. Lines come from different laboratories, so protocols vary.

| SMILES | endpoint | read by | strain | value |
|---|---|---|---|---|
| C[C@@H]1CN(c2c(F)c(N)c3c(=O)c(C(=O)O)cn(C4CC4)c3c2F)C[C@H](C)N1 | MIC |  | 1172733 | 2 µg/mL |
| CO[C@H]1/C=C/O[C@@]2(C)Oc3c(C)c(O)c4c(O)c(c(/C=N/N5CCN(C/C=C/c6ccccc6)CC5)c(O)c4c3C2=O)NC(=O)/C(C)=C\C=C\[C@H](C)[C@H](O)[C@@H](C)[C@@H](O)[C@@H](C)[C@H](OC(C)=O)[C@@H]1C | MIC |  | SK-22 | 0.06 µg/mL |
| CC1(CN)CCN(c2c(F)cc3c(=O)c(C(=O)O)cn(C4CC4)c3c2F)C1 | MIC |  | 1172733 | 32 µg/mL |
| C[C@@H]1CN(c2c(F)c(N)c3c(=O)c(C(=O)O)cn(C4CC4)c3c2F)C[C@H](C)N1 | MIC | broth dilution | 3 | 1 µg/mL |
| NCC[C@H](O)C(=O)N[C@@H]1C[C@H](N)[C@@H](O[C@H]2O[C@H](CN)[C@@H](O)[C@H](O)[C@H]2O)[C@H](O)[C@H]1O[C@H]1O[C@H](CO)[C@@H](O)[C@H](N)[C@H]1O | MIC |  | Isolate 93 | 6.25 µg/mL |
| NCC1CN(c2c(F)cc3c(=O)c(C(=O)O)cn(C4CC4)c3c2F)CC1c1ccccc1 | MIC50 |  |  | 4 µg/mL |
| CN[C@@H]1[C@H](O[C@H]2[C@H](O[C@H]3[C@H](O)[C@@H](O)[C@H](N=C(N)N)[C@@H](O)[C@@H]3N=C(N)N)O[C@@H](C)[C@]2(O)C=O)O[C@@H](CO)[C@H](O)[C@H]1O | MIC |  | 13034 (serotype 18) | >100 µg/mL |
| CC[C@H]1OC(=O)[C@H](C)[C@@H](O[C@H]2C[C@@](C)(OC)[C@@H](O)[C@H](C)O2)[C@H](C)[C@@H](O[C@@H]2O[C@H](C)C[C@H](N(C)C)[C@H]2O)[C@](C)(OC)C[C@@H](C)C(=O)[C@H](C)[C@@H](O)[C@]1(C)O | MIC |  | 1012 | 8 µg/mL |
| CN1CC2CCC1CN2c1c(F)cc2c(=O)c(C(=O)O)cn(C3CC3)c2c1F | MIC90 |  |  | 8 µg/mL |
| NC[C@H]1O[C@H](O[C@H]2[C@H](O[C@@H]3O[C@H](CO)[C@@H](O)[C@H]3O)[C@@H](O)[C@H](N)C[C@@H]2N)[C@H](N)[C@@H](O)[C@@H]1O | MIC |  | TMC 1406 | 0.19 µg/mL |
| CCCCN1CCN(c2cc3c(cc2F)c(=O)c(C(=O)O)cn3C2CC2)CC1 | MIC50 |  | 14 strains | 4 µg/mL |
| NCC[C@H](O)C(=O)N[C@@H]1C[C@H](N)[C@@H](O[C@H]2O[C@H](CN)[C@@H](O)[C@H](O)[C@H]2O)[C@H](O)[C@H]1O[C@H]1O[C@H](CO)[C@@H](O)[C@H](N)[C@H]1O | MIC |  | 1171 | 10 µg/mL |
| CC[C@H]1OC(=O)[C@H](C)[C@@H](O[C@H]2C[C@@](C)(OC)[C@@H](O)[C@H](C)O2)[C@H](C)[C@@H](O[C@@H]2O[C@H](C)C[C@H](N(C)C)[C@H]2O)[C@](C)(OC)C[C@@H](C)C(=O)[C@H](C)[C@@H](O)[C@]1(C)O | MIC |  | 3216 | 2 µg/mL |
| CC1CN(c2c(F)cc3c(=O)c(C(=O)O)cn(C4CC4)c3c2F)CCN1 | MIC90 |  | 14 strains | 2 µg/mL |
| NNC(=O)c1ccncc1 | MIC |  | 13016 (serotype 4) | 1.6 µg/mL |
| CC(C)N1CCN(c2c(F)cc3c(=O)c(C(=O)O)cn(C4CC4)c3c2F)CC1 | MIC90 |  | 14 strains | 8 µg/mL |
| NC[C@@H]1O[C@H](O[C@H]2[C@@H](O)[C@H](O[C@@H]3[C@@H](O)[C@H](N)C[C@H](N)[C@H]3O[C@H]3O[C@H](CO)[C@@H](O)[C@H](O)[C@H]3N)O[C@@H]2CO)[C@H](N)[C@@H](O)[C@@H]1O | MIC |  | TMC 1473 | <0.01 µg/mL |
| CC(C)(C)n1cc(C(=O)O)c(=O)c2cc(F)c(N3CCNCC3)cc21 | MIC90 |  | 14 strains | 4 µg/mL |
| NCC[C@H](O)C(=O)N[C@@H]1C[C@H](N)[C@@H](O[C@H]2O[C@H](CN)[C@@H](O)[C@H](O)[C@H]2O)[C@H](O)[C@H]1O[C@H]1O[C@H](CO)[C@@H](O)[C@H](N)[C@H]1O | MIC |  | SK47/HIV+ | 1.25 µg/mL |
| CC(C)(N)C1CCN(c2c(F)cc3c(=O)c(C(=O)O)cn(C4CC4)c3c2F)C1 | MIC50 |  |  | 4 µg/mL |
| CCC1CN(c2nc3c(cc2F)c(=O)c(C(=O)O)cn3C2CC2)CCN1 | MIC90 |  | 14 strains | 32 µg/mL |
| NC[C@H]1O[C@H](O[C@H]2[C@H](O)[C@@H](O[C@H]3O[C@H](CO)[C@@H](O)[C@H](N)[C@H]3O)[C@H](N)C[C@@H]2N)[C@H](N)[C@@H](O)[C@@H]1O | MIC |  | Isolate 135 | 12.5 µg/mL |
| NCC1CCN(c2c(F)cc3c(=O)c(C(=O)O)cn(C4CC4)c3c2F)C1 | MIC50 |  | 14 strains | 2 µg/mL |
| NC[C@H]1O[C@H](O[C@H]2[C@H](O)[C@@H](O[C@H]3O[C@H](CO)[C@@H](O)[C@H](N)[C@H]3O)[C@H](N)C[C@@H]2N)[C@H](O)[C@@H](O)[C@@H]1O | MIC |  | N-951 (HIV+) | 8 µg/mL |
| CNC1CCN(c2c(F)cc3c(=O)c(C(=O)O)cn(C4CC4)c3c2F)C1 | MIC50 |  |  | 2 µg/mL |
| CCn1cc(C(=O)O)c(=O)c2cc(F)c(N3CCNCC3)nc21 | MIC |  | CIPT 14031006 | 5 µg/mL |
| NCC[C@H](O)C(=O)N[C@@H]1C[C@H](N)[C@@H](O[C@H]2O[C@H](CN)[C@@H](O)[C@H](O)[C@H]2O)[C@H](O)[C@H]1O[C@H]1O[C@H](CO)[C@@H](O)[C@H](N)[C@H]1O | MIC |  | 3217 | 4 µg/mL |
| CO[C@H]1/C=C/O[C@@]2(C)Oc3c(C)c(O)c4c(O)c(c5c(c4c3C2=O)NC2(CCN(CC(C)C)CC2)N=5)=NC(=O)/C(C)=C\C=C\[C@H](C)[C@H](O)[C@@H](C)[C@@H](O)[C@@H](C)[C@H](OC(C)=O)[C@@H]1C | MIC |  | 3009-4 | 1 µg/mL |
| CO[C@H]1/C=C/O[C@@]2(C)Oc3c(C)c(O)c4c(O)c(c5c(c4c3C2=O)NC2(CCN(CC(C)C)CC2)N=5)=NC(=O)/C(C)=C\C=C\[C@H](C)[C@H](O)[C@@H](C)[C@@H](O)[C@@H](C)[C@H](OC(C)=O)[C@@H]1C | MIC90 |  | 26 isolates (HIV+) | 1 µg/mL |
| CC1CCN(c2c(F)cc3c(=O)c(C(=O)O)cn(C4CC4)c3c2F)C1 | MIC90 |  |  | 8 µg/mL |
| NC[C@H]1O[C@H](O[C@H]2[C@H](O)[C@@H](O[C@H]3O[C@H](CO)[C@@H](O)[C@H](N)[C@H]3O)[C@H](N)C[C@@H]2N)[C@H](O)[C@@H](O)[C@@H]1O | MIC |  | Isolate C-49 | 400 µg/mL |
| CC1CN(c2c(F)cc3c(=O)c(C(=O)O)cn(C4CC4)c3c2F)CCN1 | MIC50 |  |  | 1 µg/mL |
| CC1CN(c2c(F)cc3c(=O)c(C(=O)O)cn(C4CC4)c3c2F)C(C)CN1 | MIC50 |  | 14 strains | 2 µg/mL |
| CC(C)N=c1cc2n(-c3ccc(Cl)cc3)c3ccccc3nc-2cc1Nc1ccc(Cl)cc1 | MIC |  | SK47/HIV+ | 1 µg/mL |
| O=C(O)c1cn(C2CC2)c2c(F)c(N3CCSCC3)c(F)cc2c1=O | MIC |  | 1988557 | 4 µg/mL |
| NC1CCN(c2nc3c(cc2F)c(=O)c(C(=O)O)cn3-c2ccc(F)cc2F)C1 | MIC50 |  | 14 strains | ≥32 µg/mL |
| CC1COc2c(N3CCN(C)CC3)c(F)cc3c(=O)c(C(=O)O)cn1c23 | MIC |  | 733/HIV+ | 16 µg/mL |
| CC[C@@H](CO)NCCN[C@@H](CC)CO | MIC |  | N-269 (HIV-) | 8 µg/mL |
| CC[C@H]1OC(=O)[C@H](C)[C@@H](O[C@H]2C[C@@](C)(OC)[C@@H](O)[C@H](C)O2)[C@H](C)[C@@H](O[C@@H]2O[C@H](C)C[C@H](N(C)C)[C@H]2O)[C@](C)(O)C[C@@H](C)C(=O)[C@H](C)[C@@H](O)[C@]1(C)O | MIC |  | 3219 | 32 µg/mL |
| C[C@@H]1CN(c2c(F)c(N)c3c(=O)c(C(=O)O)cn(C4CC4)c3c2F)C[C@H](C)N1 | MIC50 |  |  | 1 µg/mL |
| NCCC[C@H](N)CC(=O)N[C@H]1CNC(=O)[C@H]([C@H]2C[C@H](O)NC(N)=N2)NC(=O)/C(=C/NC(N)=O)NC(=O)[C@H](CO)NC(=O)[C@H](CO)NC1=O | MIC |  | Isolate 135 | 100 µg/mL |
| CO[C@H]1/C=C/O[C@@]2(C)Oc3c(C)c(O)c4c(O)c(c(/C=N/N5CCN(C)CC5)c(O)c4c3C2=O)NC(=O)/C(C)=C\C=C\[C@H](C)[C@H](O)[C@@H](C)[C@@H](O)[C@@H](C)[C@H](OC(C)=O)[C@@H]1C | MIC |  | 733/HIV+ | 2 µg/mL |
| CCn1cc(C(=O)O)c(=O)c2cc(F)c(N3CCNCC3)cc21 | MIC |  | CIPT 140310034 | 10 µg/mL |
| O=C(O)c1cn(C2CC2)c2c(F)c(N3CCC(N4CCCC4)C3)c(F)cc2c1=O | MIC |  | 1760694 | 8 µg/mL |
| COc1c(N2CC(C)NC(C)C2)c(F)cc2c(=O)c(C(=O)O)cn(C3CC3)c12 | MIC50 |  | 14 strains | 0.5 µg/mL |
| NC1CCCCN(c2c(F)cc3c(=O)c(C(=O)O)cn(C4CC4)c3c2F)C1=O | MIC |  | PI12/39 | 32 µg/mL |
| O=C(O)c1cn(-c2ccc(F)cc2F)c2cc(N3CCNCC3)c(F)cc2c1=O | MIC50 |  | 14 strains | 4 µg/mL |
| O=C(O)c1cn(C2CC2)c2c(F)c(N3CCSCC3)c(F)cc2c1=O | MIC50 |  |  | 4 µg/mL |
| O=C(O)c1cn(C2CC2)c2c(F)c(N3CC4CCCC(C3)N4)c(F)cc2c1=O | MIC |  | 1172733 | 8 µg/mL |

The last 3 rows once more:

SMILES,endpoint,read by,strain,value
O=C(O)c1cn(-c2ccc(F)cc2F)c2cc(N3CCNCC3)c(F)cc2c1=O,MIC50,,14 strains,4 µg/mL
O=C(O)c1cn(C2CC2)c2c(F)c(N3CCSCC3)c(F)cc2c1=O,MIC50,,,4 µg/mL
O=C(O)c1cn(C2CC2)c2c(F)c(N3CC4CCCC(C3)N4)c(F)cc2c1=O,MIC,,1172733,8 µg/mL